Test results from paper PMC7993833, “EDP-938, a novel nucleoprotein inhibitor of respiratory syncytial virus, demonstrates potent antiviral activities in vitro and in a non-human primate model” (PLoS Pathogens, 2021).
Like-named read-outs stand apart in the source and are kept apart here.

Legend:
[1] = tested on: recombinant RSV A2-line19F, N protein mutants
[2] = tested on: RSV-A Long EDP-938 resistant clones; type: cell-based, respiratory syncytial virus
[3] = tested on: recombinant RSV A2-line19F, N protein mutants; test: microbe, parasite or virus in culture; settings: human respiratory syncytial virus
[4] = recombinant RSV N Q102L/M109T/I129M
[5] = RSV-A Long resistant clone #1, N: Q102L, M109T, I129M, G: K205G, K213G, T219A
[6] = RSV-A Long resistant clone #2, N: T29S, S134T
[7] = RSV-A Long resistant clone #3, N: S134T
[8] = RSV-A Long resistant clone #4, N: V90A, S134T
[9] = RSV-A Long resistant clone #5, N: M109I, G: R8H
[10] = RSV-A Long resistant clone #6, N: M109K
[11] = RSV-A Long resistant clone #7, N: K136R
[12] = HEp-2, recombinant RSV N I129L/L139I
[13] = HEp-2, recombinant RSV N Q102L/I129M
[14] = HEp-2, recombinant RSV N Q102L/M109T
[15] = HEp-2, recombinant RSV N Q102L/M109T/I129M

Row | SMILES | EC50 Fold Change vs. WT ([1]; recombinant RSV N I129L) [fold] | EC50 Fold Change vs. WT ([1]; recombinant RSV N I129L/L139I) [fold] | EC50 Fold Change vs. WT ([1]; recombinant RSV N I129M) [fold] | EC50 Fold Change vs. WT ([1]; recombinant RSV N Q102L) [fold] | EC50 Fold Change vs. WT ([1]; recombinant RSV N Q102L/I129M) [fold] | EC50 Fold Change vs. WT ([1]; recombinant RSV N Q102L/M109T) [fold] | EC50 Fold Change vs. WT [1, 4] [fold] | EC50 Fold Change vs. WT ([2]; RSV-A Long Wild-Type (WT)) [fold] | EC50 Fold Change vs. WT [2, 5] [fold] | EC50 Fold Change vs. WT [2, 6] [fold] | EC50 Fold Change vs. WT [2, 7] [fold] | EC50 Fold Change vs. WT [2, 8] [fold] | EC50 Fold Change vs. WT [2, 9] [fold] | EC50 Fold Change vs. WT [2, 10] [fold] | EC50 Fold Change vs. WT [2, 11] [fold] | EC50 ([3]; HEp-2, recombinant RSV N I129L) [nM] | EC50 [3, 12] [nM] | EC50 ([3]; HEp-2, recombinant RSV N I129M) [nM] | EC50 ([3]; HEp-2, recombinant RSV N Q102L) [nM] | EC50 [3, 13] [nM] | also measured
1 | O=C1Nc2ccccc2C(c2ccccc2)=N[C@@H]1Nc1nnc(-c2ncc(C(F)(F)F)cc2N2CCOCC2)o1 [EDP-938] | 5.1 | 13.9 | 3.7 | 2.0 | 2.2 | 2.6 | 42.4 | 1 | 60 | 3.3 | 2.6 | 3.8 | 3.1 | 67 | 2.7 | 233 ± 127 | 626 ± 139 | 170 ± 18 | 90 ± 10 | 100 ± 6 | EC50 [3, 14]: 116 ± 68 nM; EC50 [3, 15]: 1930 nM; EC50 ([3]; HEp-2, recombinant RSV N Q102L/M109T/I129M triple mutant): ~2000 nM
2 | Cc1cn2nc([C@@H]3CCCCN3C(=O)c3cc(Cl)ccc3NS(C)(=O)=O)cc2nc1N1CC[C@H](N)C1 [GS-5806] | 0.9 | 0.8 | 3.2 | 0.3 | 4.8 | 1.9 | 2.3 | 1 | 0.7 | 0.9 | 0.8 | 1.5 | 1.5 | <0.23 | 1.2 | 0.12 ± 0.09 | 0.1 ± 0.1 | 0.41 ± 0.4 | 0.04 | 0.63 ± 0.65 | EC50 [3, 14]: 0.25 ± 0.18 nM; EC50 [3, 15]: 0.3 ± 0.26 nM
3 | O=C(Nc1ccccc1F)N[C@H]1N=C(c2ccccc2)c2ccccc2NC1=O [RSV-604] | 5.6 | 15.4 | 4.4 | 1.2 | 2.8 | 2.1 | 5.6 | 1 | 4.6 | 3.1 | 2 | 3.2 | 0.7 | 3.3 | 2.2 | 6430 | 17800 | 5060 | 1340 | 3230 | EC50 [3, 14]: 2430 nM; EC50 [3, 15]: 6410 nM
